Results of unrelated studies side by side (data: NIAID ChemDB).

Shared fields: tests in culture; agent: HIV-1; read by: p24 / ELISA; read-out: EC50

An empty or dashed field is not shown.

compound	changes	strain	cell line	result
CC(=O)OCC1=C[C@H]2[C@@H]3C(C)(C)[C@]3(OC(C)=O)[C@H](OC(=O)CCc3ccccc3)[C@@H](C)[C@]2(O)[C@@H]2C=C(C)C(=O)[C@@]2(O)C1	-	IIIB	C8166	0.2087 µM
CCNc1cccc(C2NC(=O)NC(CC)=C2C(=O)OCC2CCCCC2)c1	-	-	CEM	≤1 µM
CC(C)C1=C2[C@H]3CC[C@@H]4[C@@]5(C)CC[C@H](OC(=O)[C@H]6C[C@@H](C(=O)O)C6(C)C)C(C)(C)[C@@H]5CC[C@@]4(C)[C@]3(C)CC[C@@]2([C@@H](O)CNCc2ccc(N3CCS(=O)(=O)CC3)nc2)CC1=O	-	92HT599	MT-2	<1 µM
CC(C)S(=O)(=O)N1CCN([C@H](CN[C@]23CC[C@@H](C4(C)CC4)[C@@H]2[C@H]2CC[C@@H]4[C@@]5(C)CC[C@H](OC(=O)[C@H]6C[C@@H](C(=O)O)C6(C)C)C(C)(C)[C@@H]5CC[C@@]4(C)[C@]2(C)CC3)[C@@H](C)O)CC1	-	92HT599	MT-2	<0.01 µM
CCCCCCCCCCCCCCCCCCCC(=O)O[C@@H]1[C@@H](C)[C@@]2(O)[C@@H](C=C(CO)C[C@]3(O)C(=O)C(C)=C[C@@H]23)[C@@H]2C(C)(C)[C@]12OC(=O)CCCCCCCCCCCCCCCCCCC	-	IIIB	C8166	87.4 µM
C[C@H](F)[C@@H](CN[C@]12CC[C@@H](C3(C)CC3)[C@@H]1[C@H]1CC[C@@H]3[C@@]4(C)CC[C@H](OC(=O)[C@H]5C[C@@H](C(=O)O)C5(C)C)C(C)(C)[C@@H]4CC[C@@]3(C)[C@]1(C)CC2)N1CCS(=O)(=O)CC1	V7A	NL4-3	MT-4	>0.1 µM
CC(=O)OCC1=C[C@H]2[C@@H]3C(C)(C)[C@]3(O)[C@H](OC(=O)CCc3ccccc3)[C@@H](C)[C@]2(O)[C@@H]2C=C(C)C(=O)[C@@]2(O)C1	-	IIIB	C8166	46.3 µM
Nc1cccc(C2NC(=O)NC(C3CC3)=C2C(=O)OCC2CCCCC2)c1	-	-	CEM	1–5 µM
CCCC(=O)O[C@@]12[C@H](OC(=O)/C=C/c3ccccc3)[C@@H](C)[C@@]3(O)[C@@H](C=C(CO)C[C@]4(O)C(=O)C(C)=C[C@@H]34)[C@@H]1C2(C)C	-	IIIB	C8166	0.0079 µM
Cc1ccc(C(=O)NC(C)(C)CNC[C@H](O)[C@@]23CC[C@]4(C)[C@H](CC[C@@H]5[C@@]6(C)CC[C@H](OC(=O)[C@H]7C[C@@H](C(=O)O)C7(C)C)C(C)(C)[C@@H]6CC[C@]54C)C2=C(C(C)C)C(=O)C3)cn1	-	92HT599	MT-2	<1 µM
C=C(C)[C@@H]1CC[C@]2(NC[C@H]([C@@H](C)OC(=O)COCCOC)N3CCS(=O)(=O)CC3)CC[C@]3(C)[C@H](CC[C@@H]4[C@@]5(C)CC[C@H](OC(=O)[C@H]6C[C@@H](C(=O)O)C6(C)C)C(C)(C)[C@@H]5CC[C@]43C)[C@@H]12	-	92HT599	MT-2	<0.01 µM
CCC1=C(C(=O)OCC2CCCCC2)[C@H](c2ccc(OC(C)=O)cc2)NC(=O)N1	-	-	CEM	≤1 µM
CC(C)C1=C2[C@H]3CC[C@@H]4[C@@]5(C)CC[C@H](OC(=O)[C@H]6C[C@@H](C(=O)O)C6(C)C)C(C)(C)[C@@H]5CC[C@@]4(C)[C@]3(C)CC[C@@]2(CCNCC(C)(C)NC(=O)c2ccc3nc[nH]c3c2)CC1=O	-	92HT599	MT-2	<1 µM
CC1=C[C@H]2[C@@]3(O)[C@H](C)[C@@H](OC(=O)CCCCCBr)[C@]4(OC(=O)CCCCCBr)[C@H]([C@@H]3C=C(CO)C[C@]2(O)C1=O)C4(C)C	-	IIIB	C8166	0.0057 µM
CC(C)C1=C2[C@H]3CC[C@@H]4[C@@]5(C)CC[C@H](OC(=O)[C@H]6C[C@@H](C(=O)O)C6(C)C)C(C)(C)[C@@H]5CC[C@@]4(C)[C@]3(C)CC[C@@]2(CC(=O)NCC(F)(NC(=O)c2ccc(Cl)cc2)C(C)O)CC1=O	-	92HT599	MT-2	<1 µM
CCCNc1cccc(C2NC(=O)NC(CC)=C2C(=O)OCC2CCCCC2)c1	-	-	CEM	≤1 µM
CC1([C@@H]2CC[C@]3(NC[C@H](CF)N4CCS(=O)(=O)CC4)CC[C@]4(C)[C@H](CC[C@@H]5[C@@]6(C)CC[C@H](OC(=O)[C@H]7C[C@@H](C(=O)O)C7(C)C)C(C)(C)[C@@H]6CC[C@]54C)[C@@H]23)CC1	V7A	NL4-3	MT-4	<0.05 µM
C/C=C/C(=O)O[C@@H]1[C@@H](C)[C@@]2(O)[C@@H](C=C(CO)C[C@]3(O)C(=O)C(C)=C[C@@H]23)[C@@H]2C(C)(C)[C@]12O	-	IIIB	C8166	>200 µM
CC(C)C1=C2[C@H]3CC[C@@H]4[C@@]5(C)CC[C@H](OC(=O)[C@H]6C[C@@H](C(=O)O)C6(C)C)C(C)(C)[C@@H]5CC[C@@]4(C)[C@]3(C)CC[C@@]2([C@@H](O)CNCc2ccc(Cl)cc2OCCN(C)C)CC1=O	-	92HT599	MT-2	<1 µM
Cc1ccnc2c1NC(=O)c1cccnc1N2C1CC1	-	SF33	MT-4	0.068 µM
CC1([C@@H]2CC[C@]3(NC[C@H](CO)N4CCS(=O)(=O)CC4)CC[C@]4(C)[C@H](CC[C@@H]5[C@@]6(C)CC[C@H](OC(=O)[C@H]7C[C@@H](C(=O)O)C7(C)C)C(C)(C)[C@@H]6CC[C@]54C)[C@@H]23)CC1	-	92HT599	MT-2	<0.01 µM
CC1=C(C(=O)OCC2CCCCC2)C(c2ccccc2O)NC(=O)N1	-	-	CEM	>5 µM
CC/C=C\C/C=C\C/C=C\C/C=C\C/C=C\C/C=C\CCC(=O)O[C@@H]1[C@@H](C)[C@@]2(O)[C@@H](C=C(CO)C[C@]3(O)C(=O)C(C)=C[C@@H]23)[C@@H]2C(C)(C)[C@]12OC(=O)CCC	-	IIIB	C8166	0.0283 µM
CCC1=C(C(=O)OCC2CCCCC2)[C@H](c2cccc(OC(C)=O)c2)NC(=O)N1	-	-	CEM	≤1 µM
CC(C)OC(=O)OCOP(=O)(CO[C@H](C)Cn1cnc2c(N)ncnc21)OCOC(=O)OC(C)C	V106M	-	C8166	0.01098 µM
CCC1=C(C(=O)OCC2CCCCC2)[C@H](c2cccc(OC(=O)c3ccccc3)c2)NC(=O)N1	-	-	CEM	≤1 µM
CCCCCCCCC(=O)O[C@@]12[C@H](OC(=O)/C=C/c3ccc(OC)cc3)[C@@H](C)[C@@]3(O)[C@@H](C=C(CO)C[C@]4(O)C(=O)C(C)=C[C@@H]34)[C@@H]1C2(C)C	-	IIIB	C8166	0.0045 µM
CC(C)C1=C2[C@H]3CC[C@@H]4[C@@]5(C)CC[C@H](OC(=O)[C@H]6C[C@@H](C(=O)O)C6(C)C)C(C)(C)[C@@H]5CC[C@@]4(C)[C@]3(C)CC[C@@]2([C@@H](O)CNCC(C)(C)NC(=O)c2ccncc2)CC1=O	-	92HT599	MT-2	<1 µM
CCC1=C(C(=O)Cc2ccccc2)[C@H](c2ccc(O)c(Cl)c2)NC(=O)N1	-	-	CEM	>5 µM
CC(C)C1=C2[C@H]3CC[C@@H]4[C@@]5(C)CC[C@H](OC(=O)[C@H]6C[C@@H](C(=O)O)C6(C)C)C(C)(C)[C@@H]5CC[C@@]4(C)[C@]3(C)CC[C@@]2(CCNCC(C)(C)NC(=O)c2nccs2)CC1=O	-	92HT599	MT-2	<1 µM
CCC1=C(C(=O)CCC2CCCCCC2)[C@H](c2ccc(OC(C)=O)c(Cl)c2)NC(=O)N1	-	-	CEM	≤1 µM

ECn: concentration that inhibits the pathogen or its effect by n%. a–b is a range or a potency band. Neighbouring rows are from separate reports.